Anti-infective test results gathered from many reports (values: NIAID ChemDB through PubChem).

Common to all: whole-cell or culture tests; species: Hepatitis C virus

An empty or dashed field is not shown. Neighbouring rows are from separate reports. ECn is the concentration giving n% inhibition of infection, replication or growth. a–b is a range or a potency band.

structure,strain,read-out,mutations,read by,setting,cells,value
CN(C)[C@@H](C(=O)N1CCC[C@@H]1c1ncc(-c2cnc(-c3cnc(-c4cnc([C@H]5CCCN5C(=O)[C@@H](c5ccccc5)N(C)C)[nH]4)cn3)cn2)[nH]1)c1ccccc1,1b,EC50,,,,,0.001–0.099 µM
CCOC(=O)c1ccc(OCCCCCOc2cccc(NC(N)=S)c2)cc1,,EC50,,reporter gene / fluorescence,,Ava5-EG(delta4AB)SEAP,0.001–1 µM
COc1cccc2c1c(/C=C(\C)C(=O)Nc1ccc(C(C)(C)C)cc1)cn2C(=O)OCc1ccccc1,2a J6/JFH-1,EC50,,luciferase / reporter gene,,Huh7.5,14.2 µM
COc1cc(C(=O)N2[C@@H](c3ncc(C)s3)[C@@H](c3cnccn3)C[C@@]2(Cc2ccsn2)C(=O)O)ccc1C(C)(C)C,Genotype 1A,EC50,,replicon,,Huh7,<10 µM
CC[C@@H]1C[C@]1(NC(=O)C1CC(Oc2cc(-c3csc(NC(C)C)n3)nc3c(Cl)c(OCCN4CC[C@@H](OC)C4)ccc23)CN1C(=O)[C@@H](NC(=O)C1C[C@@H]2C[C@@H]2C1)C(C)(C)C)C(=O)O,1b,EC50,,replicon,,Huh-luc,0.0038 µM
COc1ccc2c(O[C@@H]3C[C@H]4C(=O)N[C@]5(C(=O)O)C[C@H]5/C=C\CCCCC[C@H](NC(=O)OC5CCCC5)C(=O)N4C3)cc(-c3csc(NC(C)C)n3)nc2c1,,EC50,,replicon,,Huh7,0.004 µM
NC(=S)NCc1ccc(OCc2ccc(-c3ccccc3)cc2)cc1,,EC50,,replicon,,Huh7,<1 µM
OCc1nnc(-c2ccc(N3CC(Oc4ccccc4C(F)(F)F)C3)nn2)o1,GT1b,EC50,,PCR,,Huh7,0.0009 µM
COC(=O)N[C@@H](C(=O)N1CCC[C@@H]1c1ncc(-c2ccc(-c3ncc(-c4cnc([C@H]5CCCN5C(=O)Cc5cccnc5)[nH]4)cn3)cc2)[nH]1)c1ccccc1,1b,EC50,,,,,0.00001–0.000999 µM
C=Cc1c2[nH]c(c1C)/C=C1\N=C(CC3=C4N=C(/C=c5\[nH]/c(c(C)c5CC)=C\2)C(C)=C4C(=O)[C@@H]3C(=O)OC)[C@@H](CCC(=O)O)[C@@H]1C,J6/JFH1-P47,EC50,,,,Huh7.5,0.3 µg/mL
Cc1cc(N2CCOCC2)ccc1Nc1ncnc2ccc(-c3nccs3)cc12,1b,EC50,,luciferase,,Huh,<1 µM
Cc1ccc2nc(Nc3cc(O)cc([N+](=O)[O-])c3)sc2c1,Con1,EC50,,PCR,,Huh7,10 µM
CC[C@@H]1C[C@]1(NC(=O)C1CC(Oc2cc(-c3csc(NC(C)C)n3)nc3c(Cl)c(OCCN4CCOCC4(C)C)ccc23)CN1C(=O)[C@@H](NC(=O)C1C[C@@H]2C[C@@H]2C1)C(C)(C)C)C(=O)O,1b,EC50,,replicon,,Huh-luc,0.0032 µM
C[C@@]1(O)[C@H](O)[C@@H](CO)O[C@H]1n1cnc2c(N(CCO)CCO)ncnc21,,EC50,,replicon,,Huh7,>100 µM
COc1ccc(Nc2nc3ccc(C)cc3s2)c(OC)c1OC,Con1,EC50,,PCR,,Huh7,50 µM
C[C@@]1(O)[C@H](O)[C@@H](CO)O[C@H]1n1cnc2c(NO)ncnc21,,EC50,,replicon,,Huh7,<25 µM
Nc1ncnc2c1nnn2[C@@H]1O[C@H](/C=C/P(=O)(O)O)C[C@H]1O,,EC50,,replicon,,,>100 µM
COc1cc(C(=O)N2[C@@H](c3nccs3)[C@@H](c3cnccn3)C[C@@]2(Cc2ccccn2)C(=O)O)ccc1C(C)(C)C,Genotype 1A,EC50,,replicon,,Huh7,10–100 µM
CNC(=O)c1c(-c2ccc(F)cc2)oc2cc(OCc3nnnn3C)c(OC)cc12,,EC50,,replicon,,Huh7,<1 µM
Nc1cc(N)cc(-c2ccc3c(CC(=O)O)cn(Cc4c(-c5cccc(Cl)c5)sc5ccccc45)c3c2)c1,,EC50,,,,,<10 µM
COc1cc(C(=O)N2[C@@H](c3nccs3)[C@@H](c3cnccn3)C[C@@]2(CCS)C(=O)O)ccc1C(C)(C)C,Genotype 1A,EC50,,replicon,,Huh7,10–100 µM
COc1c(-c2ccc3cc(NS(C)(=O)=O)ccc3c2)cc(-n2ccc(=O)[nH]c2=O)cc1C(C)(C)C,genotype 1b Con1,EC50,M414T,luciferase,,Huh7,0.028 µM
COc1cc(C(=O)N2[C@@H](c3nccs3)[C@@H](c3cnccn3)C[C@@]2(Cn2cccn2)C(=O)O)ccc1C(C)(C)C,genotype 1b,EC50,,replicon,,Huh7,<0.1 µM
C[C@@]1(O)[C@H](O)[C@@H](CO)O[C@H]1n1cnc2c(N(N)CCO)ncnc21,,EC50,,replicon,,Huh7,<25 µM
Cc1ccc(Nc2nc3ccc(C)cc3s2)c(C)c1,Con1,EC50,,PCR,,Huh7,>200 µM
COC1O[C@H](CO)[C@H](O)[C@H]1O,,EC50,,replicon,,,>100 µM
CN(C)[C@@H](C(=O)N1CCC[C@@H]1c1ncc(-c2ccc(-c3ncc(-c4cnc([C@H]5CCCN5C(=O)[C@@H](c5ccccc5)N(C)C)[nH]4)cn3)cc2)[nH]1)c1ccccc1,1b,EC50,,,,,0.001–0.099 µM
CCCCCCC12CCCC(c3ccc(NC(N)=S)cc3)(CC1)CC2,,EC50,,replicon,,Huh7,<1 µM
Nc1nc2cnc(N3CCC(Oc4cc(F)ccc4Br)CC3)nc2s1,GT1b,EC50,,PCR,50% human serum,Huh7,>40 µM
NC(=S)NCCc1cccc(OCc2ccccc2)c1,,EC50,,replicon,,Huh7,<1 µM
COc1ccc2c(c1)c(/C=C(\C)C(=O)Nc1ccc(C(C)(C)C)cc1)cn2S(=O)(=O)Cc1ccccc1,2a J6/JFH-1,EC50,,luciferase / reporter gene,,Huh7.5,5.3 µM
CCCCCc1ccc(NC(N)=S)cc1,,EC50,,replicon,,Huh7,<1 µM
CNC(=O)c1c(-c2ccc(F)cc2)oc2cc(N(CCO)S(C)(=O)=O)c(OC(C)C)cc12,,EC50,,replicon,,Huh7,<10 µM
CC(C)(C)OC(=O)N1CCN([C@@H](c2ccccc2)C(N)c2ccccc2)CC1,,EC50,,absorbance,,,2.21 µM
CONc1ncnc2c1ncn2[C@@H]1O[C@H](CO)[C@@H](O)[C@@]1(C)O,,EC50,,replicon,,Huh7,<25 µM
Cc1ccc2nc(Nc3ccc([N+](=O)[O-])cc3)sc2c1,Con1,EC50,,PCR,,Huh7,25 µM
N#Cc1cccc(OCCCCCOc2cccc(NC(N)=S)c2)c1,,EC50,,reporter gene / fluorescence,,Ava5-EG(delta4AB)SEAP,0.001–1 µM
NC(=S)NC1(c2ccc(Oc3ccccc3)cc2)CCCC1,,EC50,,replicon,,Huh7,<1 µM
COC(=O)N[C@H](C(=O)N1CCC[C@@H]1c1ncc(-c2cnc(-c3ccc(-c4nc([C@H]5CCCN5C(=O)[C@@H](NC(=O)OC)C(C)C)[nH]c4C(F)(F)F)cc3)nc2)[nH]1)C(C)C,1b,EC50,,,,,0.00001–0.000999 µM
C=C1C(=O)O[C@@H]2[C@H]1CC[C@H](COC(=O)CC)[C@]1(O)CCC(=O)[C@@]21C,,EC50,,replicon,,Huh7,<2 µM
CNC(=O)c1c(-c2ccncc2)oc2ccc(OC)cc12,,EC50,,replicon,,Huh7,<100 µM
CCCCCNC(=S)Nc1cccc(OCCCCCc2ccccc2)c1,,EC50,,reporter gene / fluorescence,,Ava5-EG(delta4AB)SEAP,0.001–1 µM
Cc1cc(C)n2nc(CC3=C(O)CC(CCc4ccc(C(C)(C)C#N)c(Cl)c4)(C4CCCC4)OC3=O)nc2n1,WT,EC50,,replicon,,,0.05 µM
COc1ccc2c(c1)C[C@@H]1C[C@]1(C(=O)N1C[C@H]3CC[C@@H](C1)CN(S(=O)(=O)C(C)C)C3)Cn1c-2c(C2CCCCC2)c2ccc(C(=O)NS(=O)(=O)N(C)C)cc21,H77,EC50,,luciferase / replicon,,HCV replicon cells,0.006 µM
C/C(=C\c1cn(S(=O)(=O)Cc2ccccc2)c2ccccc12)C(=O)Nc1ccc(C(C)(C)C)cc1,2a J6/JFH-1,EC50,,luciferase / reporter gene,,Huh7.5,1.56 µM
Cc1ccc2nc(Nc3cc(O)cc(C(=O)O)c3)sc2c1,Con1,EC50,,PCR,,Huh7,>200 µM
COC(=O)N[C@@H](C(=O)N1CCC[C@H]1c1ncc(-c2ccc(-c3ccc(-c4cnc([C@@H]5CCCN5C(=O)[C@H]5CCCO5)[nH]4)cn3)cc2)[nH]1)c1ccccc1,1b,EC50,,,,,0.00001–0.000999 µM
Nc1ncnc2c1cnn2[C@@H]1O[C@H](/C=C/P(=O)(O)O)[C@@H](O)[C@H]1O,,EC50,,replicon,,,>100 µM
COC(=O)C1(c2ccccc2)CCN(c2cccc(NC(N)=S)c2)CC1,,EC50,,replicon,,Huh7,<1 µM
CCCCOC(=O)[C@H](C)NP(=O)(/C=C/[C@@H]1C[C@@H](O)[C@H](n2nnc3c(N)nc(N)nc32)O1)N[C@@H](C)C(=O)OCCCC,,EC50,,replicon,,,10–100 µM
CC(=O)n1cc(/C=C(\C)C(=O)Nc2ccc(C(C)(C)C)cc2)c2cc(C#N)ccc21,2a J6/JFH-1,EC50,,luciferase / reporter gene,,Huh7.5,0.98 µM
O=c1ccn([C@@H]2O[C@H](/C=C/P(=O)(O)O)C[C@H]2O)c(=O)[nH]1,,EC50,,replicon,,,>100 µM
COc1cc(C(=O)N2[C@@H](c3nccs3)[C@@H](c3cnccn3)C[C@@]2(Cc2ccsn2)C(=O)O)ccc1C(C)(C)C,Genotype 1A,EC50,,replicon,,Huh7,<10 µM
CNC(=O)c1c(-c2ccc(F)cc2)oc2cc(N(CS(C)(=O)=O)c3cscn3)c(OC(C)C)cc12,,EC50,,replicon,,Huh7,<1 µM
C[C@@]1(O)[C@H](O)[C@@H](CO)O[C@H]1n1cnc2c(NN)ncnc21,,EC50,,replicon,,Huh7,<25 µM
OCc1ccn2cc(-c3cn(Cc4cc(Cl)c(Cl)c(Cl)c4)nn3)nc2c1,GT1a,EC50,,PCR,,Huh7,0.025 µM
CCc1cc2c(cc1F)c(C#N)c(-c1ccc(S(=O)(=O)N[C@@H](C)C(F)(F)F)cn1)n2-c1ncccn1,1b,EC90,,PCR,,,0.0096 µM
Nc1ncnc2c1c([N+](=O)[O-])cn2[C@@H]1C=C(CO)[C@@H](O)[C@H]1O,,EC50,,replicon,,,31.5 µM
C[C@@]1(O)[C@H](O)[C@@H](CO)O[C@H]1n1cnc2c(NCCN)ncnc21,,EC50,,replicon,,Huh7,<25 µM
NC(=S)Nc1cccc(OCc2ccc(F)c(F)c2)c1,,EC50,,replicon,,Huh7,<1 µM
CCCCCCCCNC(=S)Nc1ccc2c(c1)Cc1cc(Br)ccc1-2,,EC50,,reporter gene / fluorescence,,Ava5-EG(delta4AB)SEAP,0.001–1 µM
NC(=S)NCc1ccc(Oc2ccccc2)cc1,,EC50,,replicon,,Huh7,<1 µM
COC(=O)N[C@@H](C(=O)N[C@@H](C)c1ncc(-c2ccc(-c3ncc(-c4cnc([C@H]5CCCN5C(=O)[C@@H](c5ccccc5)N5CCCCC5)[nH]4)cn3)cc2)[nH]1)c1ccccc1,1b,EC50,,,,,0.00001–0.000999 µM
CNC(=O)c1c(-c2ccc(F)cc2)oc2cc(-c3ccc(F)nc3)c(OC(C)C)cc12,,EC50,,replicon,,Huh7,<10 µM
C=C1C(=O)O[C@@H]2[C@H]1CC[C@H](COC(=O)/C(C)=C\C)[C@]1(O)CCC(=O)[C@@]21C,,EC50,,replicon,,Huh7,<2 µM
COc1ccc2c(c1)c(/C=C(\C)C(=O)Nc1ccc(C(C)(C)C)cc1)cn2Cc1ccccc1,2a J6/JFH-1,EC50,,luciferase / reporter gene,,Huh7.5,>100 µM
C[C@@]1(O)[C@H](O)[C@@H](CO)O[C@H]1n1cnc2c(NNS(C)(=O)=O)ncnc21,,EC50,,replicon,,Huh7,<25 µM
NC(=S)Nc1cccc(OCc2ccccc2)c1,,EC50,,replicon,,Huh7,<1 µM
CNC(=O)C1c2cc(OC(C)C)c(N3CCC(N)C3)cc2OC1c1ccc(F)cc1,,EC50,,replicon,,Huh7,<30 µM
Cc1ccc2nc(Nc3cccc(Cl)c3)sc2c1,Con1,EC50,,PCR,,Huh7,60 µM
CNC(=O)c1c(-c2ccc(F)cc2)oc2cc(-c3cc(C)n(C)n3)c(OC(C)C)cc12,,EC50,,replicon,,Huh7,<10 µM
NC(=S)Nc1ccc2c(c1)Cc1ccccc1-2,,EC50,,reporter gene / fluorescence,,Ava5-EG(delta4AB)SEAP,0.001–1 µM
COc1ccc2c(c1)C[C@@H]1C[C@]1(C(=O)N1C[C@@H]3CC[C@@H](CN(CCCC4CCCCC4)C3)C1)Cn1c-2c(C2CCCCC2)c2ccc(C(=O)NS(=O)(=O)N(C)C)cc21,H77,EC50,,luciferase / replicon,,HCV replicon cells,0.008 µM
COC(=O)N[C@H](C(=O)N1CCC[C@@H]1c1ncc(-c2ccc(-c3ccc(-c4cnc([C@@]5(C)CCCN5C(=O)[C@@H](Nc5n[nH]c(N)n5)C(C)C)[nH]4)cc3)cc2)[nH]1)C(C)C,1b,EC50,,,,,0.00001–0.000999 µM